Anti-infective test results gathered from many reports (values: NIAID ChemDB through PubChem).

Common to all: growth or infection tests; organism: Mycobacterium avium complex; endpoint: MIC90

MIC50, MIC90 and the like: level of inhibition, or share of isolates inhibited. An empty or dashed field is not shown. Rows are shuffled and stem from different studies.

| compound | strain or isolate | result |
|---|---|---|
| CN1CCCC1CCN=c1cc2n(-c3ccc(Cl)cc3)c3ccccc3nc-2cc1Nc1ccccc1 | 10 srtains | 2 µg/mL |
| NCC[C@H](O)C(=O)N[C@@H]1C[C@H](N)[C@@H](O[C@H]2O[C@H](CN)[C@@H](O)[C@H](O)[C@H]2O)[C@H](O)[C@H]1O[C@H]1O[C@H](CO)[C@@H](O)[C@H](N)[C@H]1O | - | 3.55 µg/mL |
| C[C@@H]1CN(c2c(F)c(N)c3c(=O)c(C(=O)O)cn(C4CC4)c3c2F)C[C@H](C)N1 | 20 strains | 0.78 µg/mL |
| CC1CN(c2nc3c(cc2F)c(=O)c(C(=O)O)cn3C2CC2)CC1N | - | 21.8 µg/mL |
| CO[C@H]1/C=C/O[C@@]2(C)Oc3c(C)c(O)c4c(=O)c(c5oc6cc(N7CCN(CC(C)C)CC7)cc(=O)c6nc5c4c3=C2O)NC(=O)/C(C)=C\C=C\[C@H](C)[C@H](O)[C@@H](C)[C@@H](O)[C@@H](C)[C@H](OC(C)=O)[C@@H]1C | 18 strains | 1.56 µg/mL |
| CCn1cc(C(=O)O)c(=O)c2cc(F)c(N3CCC(CNCCO)C3)c(F)c21 | - | 32 µg/mL |
| CC1CN(c2cc3c(cc2F)c(=O)c(C(=O)O)cn3C2CC2)CCN1 | 14 strains | 2 µg/mL |
| COC(=O)[C@H]1[C@H]2C[C@@H]3c4[nH]c5cc(OC)ccc5c4CCN3C[C@H]2C[C@@H](OC(=O)c2cc(OC)c(OC)c(OC)c2)[C@@H]1OC | 32 isolates | >128 µg/mL |
| CC(C)N1CCN(c2cc3c(cc2F)c(=O)c(C(=O)O)cn3C(C)(C)C)CC1 | 14 strains | 8 µg/mL |
| CCC1CCN(c2c(F)cc3c(=O)c(C(=O)O)cn(C4CC4)c3c2F)C1 | - | 8 µg/mL |
| Nc1ccn([C@@H]2O[C@H](CO)[C@@H](O)[C@@H]2O)c(=O)n1 | 32 isolates | >128 µg/mL |
| CCNC(C)C1CCN(c2c(F)cc3c(=O)c(C(=O)O)cn(C4CC4)c3c2OC)C1 | - | 8 µg/mL |
| CO[C@H]1/C=C/O[C@@]2(C)Oc3c(C)c(O)c4c(O)c(c(/C=N/N5CCN(C)CC5)c(O)c4c3C2=O)NC(=O)/C(C)=C\C=C\[C@H](C)[C@H](O)[C@@H](C)[C@@H](O)[C@@H](C)[C@H](OC(C)=O)[C@@H]1C | 26 isolates (HIV+) | 2 µg/mL |
| CC(=O)OCC1=C(C(=O)O)N2C(=O)[C@@H](NC(=O)CSc3ccncc3)[C@H]2SC1 | - | 58 µg/mL |
| Clc1ccc(Nc2cc3nc4ccccc4n(-c4ccc(Cl)cc4)c-3cc2=NCCCN2CCCC2)cc1 | 10 srtains | 2 µg/mL |
| NNC(=O)c1ccncc1 | - | 7.5 µg/mL |
| O=C(O)c1cn(C2CC2)c2c(F)c(N3CCC(N4CCCC4)C3)c(F)cc2c1=O | - | 4 µg/mL |
| CO[C@H]1/C=C/O[C@@]2(C)Oc3c(C)c(O)c4c(O)c(c5c(c4c3C2=O)NC2(CCN(CC(C)C)CC2)N=5)=NC(=O)/C(C)=C\C=C\[C@H](C)[C@H](O)[C@@H](C)[C@@H](O)[C@@H](C)[C@H](OC(C)=O)[C@@H]1C | 20 strains | 5 µg/mL |
| CC1CN(c2c(F)cc3c(=O)c(C(=O)O)cn(C4CC4)c3c2F)CCN1 | - | 2 µg/mL |
| Clc1ccc(Nc2cc3nc4ccccc4n(-c4ccc(Cl)cc4)c-3cc2=NC2CCCC2)cc1 | - | 0.21 µg/mL |
| CC1CN(c2cc3c(cc2F)c(=O)c(C(=O)O)cn3C(C)(C)C)CCN1 | 14 strains | 1 µg/mL |
| CC(C)N=c1cc2n(-c3ccc(Cl)cc3)c3ccccc3nc-2cc1Nc1ccc(Cl)cc1 | - | 0.23 µg/mL |
| O=C(O)c1cn(C2CC2)c2nc(N3CCN4CC3C4)c(F)cc2c1=O | - | 32 µg/mL |
| CCCC[C@@H]1CC(=O)[C@]2(O)O[C@@H]3[C@@H](NC)[C@@H](O)[C@@H](NC)[C@H](O)[C@H]3O[C@@H]2O1 | - | 21.9 µg/mL |
| COc1c(N2CCNCC2)c(F)cc2c(=O)c(C(=O)O)cn(C3CC3)c12 | 14 strains | 4 µg/mL |
| CCC(C)N1CCN(c2cc(=O)c3nc4c(oc3c2)c2c(=O)c3c(O)c(C)c5c(c34)=C(O)[C@@](C)(O/C=C/[C@H](OC)[C@@H](C)[C@@H](OC(C)=O)[C@H](C)[C@H](O)[C@H](C)[C@@H](O)[C@@H](C)/C=C/C=C(/C)C(=O)N2)O5)CC1 | 18 strains | 6.25 µg/mL |
| CN1CCN(CCCN2c3ccccc3Sc3ccc(C(F)(F)F)cc32)CC1 | 32 isolates | 8 µg/mL |
| Clc1ccc2c(c1)nc1cc(Nc3ccccc3)c(=NC3CCCCC3)cc-1n2-c1ccccc1 | - | 0.17 µg/mL |
| O=C(O)c1cn(C2CC2)c2c(F)c(N3CC4C(CO)C4C3)c(F)cc2c1=O | - | 32 µg/mL |
| NC(=O)c1ncn([C@@H]2O[C@H](CO)[C@@H](O)[C@H]2O)n1 | 32 isolates | >128 µg/mL |

Again, the opening 2 rows:

| compound | strain or isolate | result |
|---|---|---|
| CN1CCCC1CCN=c1cc2n(-c3ccc(Cl)cc3)c3ccccc3nc-2cc1Nc1ccccc1 | 10 srtains | 2 µg/mL |
| NCC[C@H](O)C(=O)N[C@@H]1C[C@H](N)[C@@H](O[C@H]2O[C@H](CN)[C@@H](O)[C@H](O)[C@H]2O)[C@H](O)[C@H]1O[C@H]1O[C@H](CO)[C@@H](O)[C@H](N)[C@H]1O | - | 3.55 µg/mL |